Laboratory results: article PMC4948833, “A Sensitive and Robust High-Throughput Screening Assay for Inhibitors of the Chikungunya Virus nsP1 Capping Enzyme” (PLoS ONE, 2016)

Tested on: CHIKV nsP1 GTP binding site
Experiment: FP competition assay, displacement of GTP-Bodipy by GTP and RNA cap analogs (apparent Ki / EC50)
Details: Ki relative to GTP

Row | SMILES | Fold Change
1 | Cn1c[n+]([C@@H]2O[C@H](COP(=O)([O-])OP(=O)(O)OP(=O)(O)O)[C@@H](O)[C@H]2O)c2nc(N)[nH]c(=O)c21 [me^7-GTP] | 2.84
2 | Nc1ncnc2c1ncn2[C@@H]1O[C@H](COP(=O)(O)OP(=O)(O)OP(=O)(O)O)[C@@H](O)[C@H]1O [ATP] | 6.12
3 | Nc1ccn([C@@H]2O[C@H](COP(=O)(O)OP(=O)(O)OP(=O)(O)O)[C@@H](O)[C@H]2O)c(=O)n1 [CTP] | 12.71
4 | O=c1[nH]c(=O)c2ncn([C@@H]3O[C@H](COP(=O)(O)OP(=O)(O)OP(=O)(O)O)[C@@H](O)[C@H]3O)c2[nH]1 [XTP] | 0.74
5 | Nc1nc2c(ncn2[C@@H]2O[C@H](COP(=O)(O)OP(=O)(O)OP(=O)(O)OC[C@H]3O[C@@H](n4cnc5c(N)ncnc54)[C@H](O)[C@@H]3O)[C@@H](O)[C@H]2O)c(=O)[nH]1 [GpppA] | 3.46
6 | Nc1nc2c(ncn2[C@H]2C[C@H](O)[C@@H](COP(=O)(O)OP(=O)(O)OP(=O)(O)O)O2)c(=O)[nH]1 [dGTP] | 7.71
7 | C[n+]1cn([C@@H]2O[C@H](COP(=O)([O-])OP(=O)(O)OP(=O)(O)OC[C@H]3O[C@@H](n4cnc5c(N)ncnc54)[C@H](O)[C@@H]3O)[C@@H](O)[C@H]2O)c2nc(N)[nH]c(=O)c21 [me^7-GpppA] | 12.82
8 | O=c1[nH]cnc2c1ncn2[C@@H]1O[C@H](COP(=O)(O)OP(=O)(O)OP(=O)(O)O)[C@@H](O)[C@H]1O [ITP] | 3.50
9 | Cn1c[n+]([C@@H]2O[C@H](COP(=O)(O)O)[C@@H](O)[C@H]2O)c2nc(N)[nH]c(=O)c21 [me^7-GMP] | 40.11
10 | Nc1nc2c(ncn2[C@H]2CC[C@@H](COP(=O)(O)OP(=O)(O)OP(=O)(O)O)O2)c(=O)[nH]1 [ddGTP] | 0.78
11 | Nc1nc2c(ncn2[C@@H]2O[C@H](COP(=O)(O)OP(=O)(O)O)[C@@H](O)[C@H]2O)c(=O)[nH]1 [GDP] | 8.96
12 | Nc1nc2c(ncn2[C@@H]2O[C@H](COP(=O)(O)O)[C@@H](O)[C@H]2O)c(=O)[nH]1 [GMP] | 243.59
13 | O=c1ccn([C@@H]2O[C@H](COP(=O)(O)OP(=O)(O)OP(=O)(O)O)[C@@H](O)[C@H]2O)c(=O)[nH]1 [UTP] | 8.17
14 | Nc1nc2c(ncn2[C@@H]2O[C@H](COP(=O)(O)OP(=O)(O)OP(=O)(O)O)[C@@H](O)[C@H]2O)c(=O)[nH]1 [GTP] | 1
